Compound potency records, mixed from different reports. Data source: NIAID ChemDB in PubChem.

Shared fields: tests in culture; organism: Mycobacterium avium

Rows are shuffled and stem from different studies. Blank or dashed fields: not listed here.

| smiles | strain | setting | measure | result |
|---|---|---|---|---|
| CCCCCCCS/C(N)=N/N=C/c1ccc2ccccc2n1 | CNCTC D5/93 |  | MIC | 32 µM |
| COc1ccc(NC(=O)OCCN2CCCCC2)cc1 | MY330/88 |  | MIC | 125 µM |
| CCCCCCCCCCCCNC[C@H]1O[C@H](O[C@H]2O[C@H](CNCCCCCCCCCCCC)[C@@H](O)[C@H](O)[C@H]2O)[C@H](O)[C@@H](O)[C@@H]1O | NJ211 |  | MIC | 8 µg/mL |
| CCOC(=O)c1ccc(-n2c(=O)oc3ccc(Br)cc3c2=O)cc1 | CNCTC MY330/88 |  | MIC | 32 µM |
| CCCCC(CC)CN(CC(CC)CCCC)C[C@H]1O[C@H](O[C@H]2O[C@H](CN(CC(CC)CCCC)CC(CC)CCCC)[C@@H](O)[C@H](O)[C@H]2O)[C@H](O)[C@@H](O)[C@@H]1O | NJ168 |  | MIC | 128 µg/mL |
| C(=C\c1ccccc1)/CCNc1ccc(N2CCSCC2)cc1 | 103317 |  | MIC | 8 µg/mL |
| COc1cccc(C(=O)NCc2ccccn2)c1O | ATCC 25291 | 14 d | MIC | 1000 µM |
| Cc1ccc(C(Cn2ccnc2)OCc2ccc(-c3ccccc3)cc2)cc1 | 103317 |  | MIC | 5.43 µM |
| CCCOc1ccccc1NC(=O)OCC[NH+]1CCCC1 | MY330/88 |  | MIC | 1000 µM |
| Cc1ccc(CSc2ncn[nH]2)cc1 | MY330/88 |  | MIC | 250 µM |
| Clc1ccc(CNc2ccccc2N2CCSCC2)cc1 | 103317 |  | MIC | >16 µg/mL |
| CCCCC(CC)CNC[C@H]1O[C@H](O[C@H]2O[C@H](CO)[C@@H](O)[C@H](O)[C@H]2O)[C@H](O)[C@@H](O)[C@@H]1O | NJ3404 |  | MIC | >128 µg/mL |
| CCCCCCCCOc1cccc(NC(=O)OCC[NH+]2CCCC2)c1 | MY330/88 |  | MIC | 16 µM |
| CCCCCCCOc1ccccc1NC(=O)OCCN1CCCCCC1 | MY330/88 |  | MIC | 32 µM |
| CCCCS/C(N)=N/N=C/c1ccc2ccccc2n1 | CNCTC MY80/72 |  | MIC | 63 µM |
| COc1ccc(-n2c(=O)oc3ccc([N+](=O)[O-])cc3c2=O)cc1 | CNCTC MY330/88 |  | MIC | 1000 µM |
| CCCCCCCSc1ccnc(C(N)=S)c1 | 80/72 |  | MIC | 60 µM |
| [N-]=[N+]=NC[C@H]1O[C@H](O[C@H]2O[C@H](CN=[N+]=[N-])[C@@H](O)[C@H](O)[C@H]2O)[C@H](O)[C@@H](O)[C@@H]1O | NJ3350 |  | MIC | >128 µg/mL |
| CC[C@H]1OC(=O)[C@H](C)C(=O)[C@H](C)[C@@H](O[C@@H]2O[C@H](C)C[C@H](N(C)C)[C@H]2O)[C@](C)(OC)C[C@@H](C)C(=O)[C@H](C)[C@H]2N(CCCCn3cnc(-c4cccnc4)c3)C(=O)O[C@]12C | Isolate 711 |  | MIC | 2.5 µg/mL |
| CCOC(=O)c1ccc(-n2c(=O)oc3ccccc3c2=O)cc1 | CNCTC MY330/88 |  | MIC | 32 µM |
| Cc1cc(NC(=O)c2ccc(Cl)cc2O)no1 | MY330/88 |  | MIC | 125 µM |
| COc1ccc2oc(=O)n(-c3ccccc3)c(=O)c2c1 | CNCTC MY330/88 |  | MIC | 125 µM |
| FC(F)(F)c1cccc(CSc2ncn[nH]2)c1 | MY330/88 |  | MIC | 500 µM |
| Cc1csc(NC(=O)c2cc(Br)ccc2O)n1 | MY330/88 |  | MIC | 250 µM |
| CCCCCCCCOc1ccc(NC(=O)OCCN2CCOCC2)cc1 | MY330/88 |  | MIC | 16 µM |
| CCCCCCOc1ccc(NC(=O)OC(COCC)CN2CCCCC2)cc1 | MY330/88 |  | MIC | 32 µM |
| CCCCCOc1ccc(NC(=O)OCC[NH+]2CCCC2)cc1 | MY330/88 |  | MIC | 62.5 µM |
| COc1ccc(C(=O)Nc2nc(C)cs2)c(O)c1 | MY330/88 |  | MIC | 250 µM |
| CC1COc2c(N3CCN(C)CC3)c(F)cc3c(=O)c(C(=O)O)cn1c23 | ATCC 25291 |  | Median MIC | 8 µg/mL |
| CC(C)CSc1ccnc(C(N)=S)c1 | 80/72 |  | MIC | 1000 µM |
| CCCCCCCOc1cccc(NC(=O)OC(COCC)CN2CCCCC2)c1 | MY330/88 |  | MIC | 8 µM |
| O=C(NCc1ccccn1)c1cc(F)ccc1O | ATCC 25291 | 21 d | MIC | 1000 µM |
| Clc1ccc(C(Cn2ccnc2)OC/C=C/c2ccccc2)c(Cl)c1 | 103317 |  | MIC | 21.5 µM |
| O=C(NCc1ccccn1)c1cc(Cl)ccc1O | ATCC 25291 | 21 d | MIC | 250 µM |
| CCCCCCCCCCCCN(CCCCCCCCCCCC)C[C@H]1O[C@H](O[C@H]2O[C@H](CN(CCCCCCCCCCCC)CCCCCCCCCCCC)[C@@H](O)[C@H](O)[C@H]2O)[C@H](O)[C@@H](O)[C@@H]1O | NJ3009 |  | MIC | >128 µg/mL |
| CCC(C)S/C(N)=N/N=C/c1ccncc1 | CNCTC MY66/72 |  | MIC | 63 µM |
| Clc1cccc(CSc2ncn[nH]2)c1 | MY330/88 |  | MIC | 500 µM |
| O=C(Nc1ccc(N2CCSCC2)cc1)c1ccc(Cl)cc1 | 103317 |  | MIC | >16 µg/mL |
| C(=C\c1ccccc1)/CO/N=C(\Cn1ccnc1)c1ccccc1 | 103317 |  | MIC | 25.2 µM |
| CCCCCCCCS(=O)(=O)NC[C@H]1O[C@H](O[C@H]2O[C@H](CNS(=O)(=O)CCCCCCCC)[C@@H](O)[C@H](O)[C@H]2O)[C@H](O)[C@@H](O)[C@@H]1O | NJ211 |  | MIC | 64 µg/mL |
| CCCCCCCCCCCCCCCCSc1ccnc(C(N)=S)c1 | 80/72 |  | MIC | 2000 µM |
| CS/C(N)=N/N=C/c1ccc2ccccc2n1 | CNCTC MY80/72 |  | MIC | 1000 µM |
| C(/C=C/c1ccccc1)=Nc1ccc(Cn2ccnc2)cc1 | 103317 |  | MIC | 55.7 µM |
| CCCCCCCOc1ccc(NC(=O)OCCN(C)C)cc1 | MY330/88 |  | MIC | 16 µM |
| CCCCOc1cccc(NC(=O)OCCN2CCCCC2)c1 | MY330/88 |  | MIC | 125 µM |
| Cc1onc(-c2ccccc2Cl)c1C(=O)N[C@@H]1C(=O)N2[C@@H]1SC(C)(C)[C@@H]2C(=O)O | ATCC 25291 |  | Mean MIC | >256 µg/mL |
| Cc1csc(NC(=O)c2cc(Cl)ccc2O)n1 | MY330/88 |  | MIC | 62.5 µM |
| C(=C\c1ccccc1)/CNc1cccc(N2CCSCC2)c1 | 103317 |  | MIC | 98.8 µM |
| O=C(C/C=C/c1ccccc1)Nc1ccc(N2CCSCC2)cc1 | 103317 |  | MIC | 4 µg/mL |
| c1ccc(-c2ccc(CNc3cccc(N4CCSCC4)c3)cc2)cc1 | 103317 |  | MIC | 85.5 µM |
| Cc1cccc(C(N)=Nc2nc(-c3ccccn3)cc3ccccc23)c1 | SK-22 |  | MIC | 4 µg/mL |
| O=C(NCc1ccccn1)c1cc(Br)ccc1O | ATCC 25291 | 14 d | MIC | 250 µM |
| Clc1ccccc1CSc1ncn[nH]1 | MY330/88 |  | MIC | 1000 µM |
| NC[C@H]1O[C@H](O[C@H]2[C@H](O)[C@@H](O[C@H]3O[C@H](CO)[C@@H](O)[C@H](N)[C@H]3O)[C@H](N)C[C@@H]2N)[C@H](O)[C@@H](O)[C@@H]1O | ATCC 25291 |  | Mean MIC | 2.5 µg/mL |
| CCCCCCCCOc1ccccc1NC(=O)OCCN(C)C | MY330/88 |  | MIC | 8 µM |
| CCCCCCCCCCCCCCCCS(=O)(=O)NC[C@H]1O[C@H](O[C@H]2O[C@H](CNS(=O)(=O)CCCCCCCCCCCCCCCC)[C@@H](O)[C@H](O)[C@H]2O)[C@H](O)[C@@H](O)[C@@H]1O | NJ3404 |  | MIC | >64 µg/mL |
| CCCCOc1ccccc1NC(=O)OCC[NH+]1CCCC1 | MY330/88 |  | MIC | 125 µM |
| O=C(Nc1cnccn1)c1cc(Cl)ccc1O | MY330/88 |  | MIC | 250 µM |
| O=C(NCc1ccccc1)c1cc(Cl)cc(Cl)c1O | ATCC 25291 | 21 d | MIC | 125 µM |
| Clc1ccc(C(Cn2ccnc2)NCc2ccc(-c3ccccc3)cc2)cc1 | 103317 |  | MIC | 5.16 µM |
| CCCCCCCCOc1ccccc1NC(=O)OCC[NH+]1CCCC1 | MY330/88 |  | MIC | 16 µM |
| NC(N)=NC[C@H]1O[C@H](O[C@H]2O[C@H](CN=C(N)N)[C@@H](O)[C@H](O)[C@H]2O)[C@H](O)[C@@H](O)[C@@H]1O | NJ3404 |  | MIC | >128 µg/mL |
| CCCCCCCOc1ccc(NC(=O)OCCN2CCCCC2)cc1 | MY330/88 |  | MIC | 16 µM |
| CCCSc1ccnc(C(N)=S)c1 | 80/72 |  | MIC | 250 µM |
| CCCCCCCCNC[C@H]1O[C@H](O[C@H]2O[C@H](CNCCCCCCCC)[C@@H](O)[C@H](O)[C@H]2O)[C@H](O)[C@@H](O)[C@@H]1O | NJ211 |  | MIC | 2 µg/mL |
| Clc1ccc(/C(Cn2ccnc2)=N\OCc2ccc(-c3ccccc3)cc2)cc1 | 103317 |  | MIC | 19.9 µM |
| Clc1ccc2c(c1)nc1cc(Nc3ccccc3)c(=NC3CCCCC3)cc-1n2-c1ccccc1 | 19894 |  | MIC | 1 µg/mL |
| CC(C)N=C(N)/N=C(\N)NOCCCOc1cc(Cl)c(Cl)cc1Cl | 3404-4 |  | MIC | 15.6 µg/mL |

9 of the rows above, restated:

smiles	strain	setting	measure	result
CCCCCCOc1ccc(NC(=O)OC(COCC)CN2CCCCC2)cc1	MY330/88		MIC	32 µM
O=C(NCc1ccccc1)c1cc(Cl)cc(Cl)c1O	ATCC 25291	21 d	MIC	125 µM
[N-]=[N+]=NC[C@H]1O[C@H](O[C@H]2O[C@H](CN=[N+]=[N-])[C@@H](O)[C@H](O)[C@H]2O)[C@H](O)[C@@H](O)[C@@H]1O	NJ3350		MIC	>128 µg/mL
C(/C=C/c1ccccc1)=Nc1ccc(Cn2ccnc2)cc1	103317		MIC	55.7 µM
CCCCC(CC)CNC[C@H]1O[C@H](O[C@H]2O[C@H](CO)[C@@H](O)[C@H](O)[C@H]2O)[C@H](O)[C@@H](O)[C@@H]1O	NJ3404		MIC	>128 µg/mL
CC[C@H]1OC(=O)[C@H](C)C(=O)[C@H](C)[C@@H](O[C@@H]2O[C@H](C)C[C@H](N(C)C)[C@H]2O)[C@](C)(OC)C[C@@H](C)C(=O)[C@H](C)[C@H]2N(CCCCn3cnc(-c4cccnc4)c3)C(=O)O[C@]12C	Isolate 711		MIC	2.5 µg/mL
C(=C\c1ccccc1)/CNc1cccc(N2CCSCC2)c1	103317		MIC	98.8 µM
COc1ccc(NC(=O)OCCN2CCCCC2)cc1	MY330/88		MIC	125 µM
CCCCCCCCCCCCCCCCSc1ccnc(C(N)=S)c1	80/72		MIC	2000 µM